No dose or concentration is given here for some results.
What follows are molecules tested on influenza A H1N1 (A/PR/8/34 virus) (assay: cytopathic effect (CPE) inhibition assay in MDCK cells). Settings: not given.
Type: cell-based

SMILES | SI
CC(=O)OC[C@H](Cc1ccccc1)NC(=O)[C@H](Cc1ccccc1)NC(=O)c1ccccc1 [Compound 1, (S)-2-((S)-2-benzamido-3-phenylpropanamido)-3-phenylpropyl acetate, reference compound] | >12.2
CC(=O)OC[C@H](Cc1ccccc1)NC(=O)[C@H](Cc1ccccc1)NC(=O)c1ccc(F)cc1 [Compound 3, (S)-2-((S)-2-(4-fluorobenzamido)-3-phenylpropanamido)-3-phenylpropyl acetate] | >8.0
CC(=O)OC[C@H](Cc1ccc(F)cc1)NC(=O)[C@H](Cc1ccccc1)NC(=O)c1ccccc1 [Compound 4, (S)-2-((S)-2-benzamido-3-phenylpropanamido)-3-(4-fluorophenyl)propyl acetate] | >11.4
CC(=O)OC[C@H](Cc1ccccc1)NC(=O)[C@H](Cc1ccc(F)cc1)NC(=O)c1ccc(F)cc1 [Compound 5, (S)-2-((S)-2-(4-fluorobenzamido)-3-(4-fluorophenyl)propanamido)-3-phenylpropyl acetate] | >8.6
CC(=O)OC[C@H](Cc1ccc(F)cc1)NC(=O)[C@H](Cc1ccc(F)cc1)NC(=O)c1ccccc1 [Compound 6, (S)-2-((S)-2-benzamido-3-(4-fluorophenyl)propanamido)-3-(4-fluorophenyl)propyl acetate] | >16.9
CC(=O)OC[C@H](Cc1ccc(F)cc1)NC(=O)[C@H](Cc1ccccc1)NC(=O)c1ccc(F)cc1 [Compound 7, (S)-2-((S)-2-(4-fluorobenzamido)-3-phenylpropanamido)-3-(4-fluorophenyl)propyl acetate] | >24.1
CC(=O)OC[C@H](Cc1ccc(F)cc1)NC(=O)[C@H](Cc1ccc(F)cc1)NC(=O)c1ccc(F)cc1 [Compound 8, (S)-2-((S)-2-(4-fluorobenzamido)-3-(4-fluorophenyl)propanamido)-3-(4-fluorophenyl)propyl acetate] | >60.6
O=C(N[C@@H](Cc1ccccc1)C(=O)N[C@H](CO)Cc1ccccc1)c1ccccc1 [Compound 9, N—((S)-1-(((S)-1-hydroxy-3-phenylpropan-2-yl)amino)-1-oxo-3-phenylpropan-2-yl)benzamide, reference compound] | >11.4
O=C(N[C@@H](Cc1ccc(F)cc1)C(=O)N[C@H](CO)Cc1ccccc1)c1ccccc1 [Compound 10, N—((S)-3-(4-fluorophenyl)-1-(((S)-1-hydroxy-3-phenylpropan-2-yl)amino)-1-oxopropan-2-yl)benzamide] | >26.0
O=C(N[C@@H](Cc1ccccc1)C(=O)N[C@H](CO)Cc1ccccc1)c1ccc(F)cc1 [Compound 11, 4-fluoro-N—((S)-1-(((S)-1-hydroxy-3-phenylpropan-2-yl)amino)-1-oxo-3-phenylpropan-2-yl)benzamide] | >7.9
O=C(N[C@@H](Cc1ccccc1)C(=O)N[C@H](CO)Cc1ccc(F)cc1)c1ccccc1 [Compound 12, N—((S)-1-(((S)-1-(4-fluorophenyl)-3-hydroxypropan-2-yl)amino)-1-oxo-3-phenylpropan-2-yl)benzamide] | >21.3
O=C(N[C@@H](Cc1ccc(F)cc1)C(=O)N[C@H](CO)Cc1ccccc1)c1ccc(F)cc1 [Compound 13] | >34.1
O=C(N[C@@H](Cc1ccc(F)cc1)C(=O)N[C@H](CO)Cc1ccc(F)cc1)c1ccccc1 [Compound 14, N—((S)-3-(4-fluorophenyl)-1-(((S)-1-(4-fluorophenyl)-3-hydroxypropan-2-yl)amino)-1-oxopropan-2-yl)benzamide] | >18.1
O=C(N[C@@H](Cc1ccccc1)C(=O)N[C@H](CO)Cc1ccc(F)cc1)c1ccc(F)cc1 [Compound 15, 4-fluoro-N—((S)-1-(((S)-1-(4-fluorophenyl)-3-hydroxypropan-2-yl)amino)-1-oxo-3-phenylpropan-2-yl)benzamide] | >9.2
O=C(N[C@@H](Cc1ccc(F)cc1)C(=O)N[C@H](CO)Cc1ccc(F)cc1)c1ccc(F)cc1 [Compound 16, 4-fluoro-N—((S)-3-(4-fluorophenyl)-1-(((S)-1-(4-fluorophenyl)-3-hydroxypropan-2-yl)amino)-1-oxopropan-2-yl)benzamide] | >59.0

Same assay, conditions: Compound 8 versus Compound 1, Compound 16 versus Compound 9

SMILES | fold more efficient against A/PR/8/34 virus [fold]
CC(=O)OC[C@H](Cc1ccc(F)cc1)NC(=O)[C@H](Cc1ccc(F)cc1)NC(=O)c1ccc(F)cc1 [Compound 8, (S)-2-((S)-2-(4-fluorobenzamido)-3-(4-fluorophenyl)propanamido)-3-(4-fluorophenyl)propyl acetate] | 10
O=C(N[C@@H](Cc1ccc(F)cc1)C(=O)N[C@H](CO)Cc1ccc(F)cc1)c1ccc(F)cc1 [Compound 16, 4-fluoro-N—((S)-3-(4-fluorophenyl)-1-(((S)-1-(4-fluorophenyl)-3-hydroxypropan-2-yl)amino)-1-oxopropan-2-yl)benzamide] | 10
